{"source": "patent US20090280130A1", "about": "(priority 2006, published 2009)", "system": "zebrafish embryos", "assay": "Zebrafish embryo LeTx toxin phenotype scoring, Experiment #2 (higher LeTx)", "type": "in vivo", "details": "LeTx ~75 fMoles PA+~110 fMoles LF, ~28 hours post injection; for # Wild-type Phen / Mild Phen / Severe Toxin Phen: number of embryos"}
{"smiles": "Cc1cc(F)c(Nc2ncnc3cc(OCc4ccccc4)ccc23)cc1O", "values": [{"measurement": "% With Toxin Phen (Mild and Severe)", "setting": "inhibitor 250 nM", "value": 95, "unit": "%"}, {"measurement": "% With Toxin Phen (Mild and Severe)", "setting": "inhibitor 500 nM", "value": 30, "unit": "%"}, {"measurement": "% With Toxin Phen (Mild and Severe)", "setting": "inhibitor 1.5 uM", "value": 74, "unit": "%"}, {"measurement": "# Wild-type Phen", "setting": "inhibitor 250 nM", "value": 1}, {"measurement": "Mild Phen", "setting": "inhibitor 250 nM", "value": 5}, {"measurement": "Severe Toxin Phen", "setting": "inhibitor 250 nM", "value": 13}, {"measurement": "# Wild-type Phen", "setting": "inhibitor 500 nM", "value": 14}, {"measurement": "Mild Phen", "setting": "inhibitor 500 nM", "value": 4}, {"measurement": "Severe Toxin Phen", "setting": "inhibitor 500 nM", "value": 2}, {"measurement": "# Wild-type Phen", "setting": "inhibitor 1 uM", "value": 6}, {"measurement": "Mild Phen", "setting": "inhibitor 1 uM", "value": 7}, {"measurement": "Severe Toxin Phen", "setting": "inhibitor 1 uM", "value": 7}, {"measurement": "# Wild-type Phen", "setting": "inhibitor 1.5 uM", "value": 5}, {"measurement": "Mild Phen", "setting": "inhibitor 1.5 uM", "value": 9}, {"measurement": "Severe Toxin Phen", "setting": "inhibitor 1.5 uM", "value": 5}]}
